Anti-infective test results gathered from many reports (values: NIAID ChemDB through PubChem).

Shared fields: whole-cell or culture tests; species: Mycobacterium tuberculosis

Blank or dashed fields: not listed here. MIC bound: limit read from a one-dose screen. Percent inhibition refers to the dose given; in toxicity tests it is the harm to the cells. A number after MIC or MFC names an inhibition level or a share of isolates. Lines come from different laboratories, so protocols vary. ECn: concentration that inhibits the pathogen or its effect by n%.

structure	dose	strain	setting	read-out	mutations	read by	value
CC1CN(c2cc3c(cc2F)c(=O)c(C(=O)O)cn3-c2ccc(F)cc2F)CCN1	-	ATCC 35828	-	MIC	-	-	1 µg/mL
COCCCn1c(-c2ccc(Cl)cc2)nn2c(=O)c3ccccc3nc2c1=O	12.5 µg/mL	H37Rv	-	inhibition	-	BACTEC	11%
COc1ccccc1CCNCCN(Cc1ccccc1)Cc1ccccc1	-	-	-	MIC	-	-	50 µM
c1ccc(-c2c(-c3cccs3)[nH]c(-c3cccs3)c2-c2ccccn2)nc1	-	H37Rv	-	MIC bound	-	BACTEC	>12.5 µg/mL
O=C(O)c1ccc(C(=O)c2ccccc2C(=O)O)cc1	-	H37Rv	-	MIC	-	-	100 µg/mL
CCOC(=O)Nc1cc(N)c([N+](=O)[O-])c(NCC(C)=O)n1	-	H37Rv	-	EC50	-	-	<12.5 µg/mL
CNC(C)Cc1cccs1.Cl	-	H37Rv	-	MIC	-	-	>100 µg/mL
CC[C@H]1OC(=O)[C@H](C)[C@@H](O[C@H]2C[C@@](C)(OC)[C@@H](O)[C@H](C)O2)[C@H](C)[C@@H](O[C@@H]2O[C@H](C)C[C@H](N(C)C)[C@H]2O)[C@](C)(O)C[C@@H](C)CN(C)[C@H](C)[C@@H](O)[C@]1(C)O	-	H37Rv	-	MBC	-	-	>8 µg/mL
O=C1CC(c2ccc(O)c(O)c2)Oc2c1c(O)cc(O[C@@H]1O[C@H](CO)[C@@H](O)[C@H](O)[C@H]1O)c2C1C(=O)c2c(O)cc(O)cc2OC1c1ccc(O)cc1	12.5 µg/mL	H37Rv	-	inhibition	-	-	0%
O=C1/C(=N/O)CC(c2ccccc2)N1Br	12.8 µg/mL	H37Rv	-	inhibition	-	BACTEC	17%
Cc1ccc2oc(=S)n(-c3ccc(C(F)(F)F)cc3)c(=S)c2c1	-	My 331/88	21 d	MIC	-	-	8 µM
CC1COc2c(N3CCN(C)CC3)c(F)cc3c(=O)c(C(=O)O)cn1c23	-	ATCC 35828	-	MIC	-	-	0.5 µg/mL
c1ccc2c(c1)ccc1c3ccccc3[nH]c21	-	H37Rv	-	MIC	-	-	>100 µg/mL
CC1=C(O)C(=O)[C@H]2O[C@H]2C1=O	-	H37Rv	-	MIC bound	-	BACTEC	>12.5 µg/mL
CCCCCCCCCCCNCCNCc1cc(OC)c(OC)c(OC)c1	-	-	-	MIC	-	-	50 µM
O=C(Nc1ccccn1)c1ccccc1[N+](=O)[O-]	-	H37Rv	-	MIC	-	-	>100 µg/mL
CO[C@H]1/C=C/O[C@@]2(C)Oc3c(C)c(O)c4c(O)c(c5c(c4c3C2=O)NC2(CCN(CC(C)C)CC2)N=5)=NC(=O)/C(C)=C\C=C\[C@H](C)[C@H](O)[C@@H](C)[C@@H](O)[C@@H](C)[C@H](OC(C)=O)[C@@H]1C	-	Strain 65 66	-	MIC	-	-	0.03 µg/mL
NNC(=O)c1ccncc1	-	Clinical isolate BRF 14	-	MIC	INH resistant	resazurin	2 µg/mL
CCOC(=O)Nc1cc(N)c([N+](=O)[O-])c(N[C@H](C)/C(=C\O)c2ccc(O)cc2)n1	12.5 µg/mL	H37Rv	-	inhibition	-	-	1%
CO[C@H]1/C=C/O[C@@]2(C)Oc3c(C)c(O)c4c(=O)c(c5oc6cc(N7CCN(C(C)C)CC7)cc(=O)c6nc5c4c3=C2O)NC(=O)/C(C)=C\C=C\[C@H](C)[C@H](O)[C@@H](C)[C@@H](O)[C@@H](C)[C@H](OC(C)=O)[C@@H]1C	-	35 (rifampin-resistant)	-	MIC	-	-	0.2 µg/mL
CCN(CC)c1ccc2nc3c4ccccc4c(=NC(=O)c4ccccc4-c4c5ccc(N(CC)CC)cc5[o+]c5cc(N(CC)CC)ccc45)cc-3oc2c1.[Cl-]	-	TAC-R	-	MIC	-	-	1.6 µg/mL
CC1(C)[C@H]2CC[C@@H](CNCCN[C@H]3C[C@H]4CC[C@]3(C)C4(C)C)[C@@H]1C2	-	-	-	MIC	-	-	3.13 µM
CO[C@H]1/C=C/O[C@@]2(C)Oc3c(C)c(O)c4c(O)c(c(/C=N/N5CCN(C/C=C/c6ccccc6)CC5)c(O)c4c3C2=O)NC(=O)/C(C)=C\C=C\[C@H](C)[C@H](O)[C@@H](C)[C@@H](O)[C@@H](C)[C@H](OC(C)=O)[C@@H]1C	-	2847 (rifampin-sensitive)	-	MIC	-	-	0.1 µg/mL
COc1ccc(C2CC(=O)c3c(OC)cc(OC)cc3O2)cc1	12.5 µg/mL	H37Rv	-	inhibition	-	-	12%
CN(C)c1ccccc1C(=O)O	-	H37Rv	-	MIC	-	-	>100 µg/mL
O=S1(=O)c2cccc(c2)NC(=S)/C([n+]2ccccc2)=C(/[O-])c2ccc(cc2)CC2CCCCN21	12.5 µg/mL	H37Rv	-	inhibition	-	BACTEC	-18%
Nc1ccc(Nc2ccccc2)c(S(=O)(=O)O)c1	-	H37Rv	-	MIC	-	-	>100 µg/mL
CO[C@H]1/C=C/O[C@@]2(C)Oc3c(C)c(O)c4c(O)c(c(/C=N/N5CCN(C6CCCC6)CC5)c(O)c4c3C2=O)NC(=O)/C(C)=C\C=C\[C@H](C)[C@H](O)[C@@H](C)[C@@H](O)[C@@H](C)[C@H](OC(C)=O)[C@@H]1C	-	Isolate 900240 drug-susceptible	-	MIC	-	-	0.063 µg/mL
CC(O)C1(O)C(O)CC(OC2c3cc4c(c(O)c3[C@@H]3C[C@@]2(C)OC32C=c3cc[nH]c3=N2)C(=O)c2cccc(O)c2C4=O)OC1C	-	CS-R	-	MIC	-	-	<0.1 µg/mL
Cc1cc(OCC(=O)O)cc(C)c1Cl	-	H37Rv	-	MIC	-	-	50 µg/mL
CCOC(=O)Nc1cc(NN)c([N+](=O)[O-])c(NC(=O)OCC)n1	12.5 µg/mL	H37Rv	-	inhibition	-	-	0%
CCOC(=O)C1=Nc2cccc3c(O)ccc1c23	-	H37Rv	-	MIC bound	-	BACTEC	>12.5 µg/mL
CCCCCC(C)NCCNCCCCc1ccccc1	-	-	-	MIC	-	-	25 µM
COc1ccc(/C=C/C(=O)c2ccc(F)cc2O)cc1	-	-	-	EC50	-	-	<12.5 µg/mL
Cc1c(C(=O)NN)sc(C(=O)NN)c1C	12.5 µg/mL	H37Rv	-	inhibition	-	BACTEC	17%
CC(C)c1ccc2c(c1)CC[C@H]1[C@](C)(CNCCNCCc3ccccc3)CCC[C@]21C	-	-	-	MIC	-	-	12.5 µM
O=C1N[C@@H]2C(=C[C@H](O)[C@@H](O)[C@H]2O)c2cc3c(c(O)c21)OCO3	-	H37Rv	-	MIC	-	BACTEC	≥12.5 µg/mL
CCCCC(=O)C(C)Nc1cc(NC(=O)OCC)nc(N)c1[N+](=O)[O-]	12.5 µg/mL	H37Rv	-	inhibition	-	-	3%
c1ccc(NCCOc2ccccc2)cc1	-	H37Rv	-	MIC	-	-	50 µg/mL
C=C1c2c(Cl)ccc(O)c2C(O)=C2C(=O)[C@]3(O)C(O)=C(C(N)=O)C(=O)C(N(C)C)[C@@H]3[C@@H](O)[C@@H]12	-	H37Rv	-	MIC bound	-	BACTEC	≤12.5 µg/mL
CC[C@H]1OC(=O)[C@H](C)[C@@H](O[C@H]2C[C@@](C)(OC)[C@@H](O)[C@H](C)O2)[C@H](C)[C@@H](O[C@@H]2O[C@H](C)C[C@H](N(C)C)[C@H]2O)[C@](C)(OC)C[C@@H](C)C(=O)[C@H](C)[C@@H](O)[C@]1(C)O	-	Drug-resistant	-	MBC90	-	-	>8 µg/mL
N=C(N)CCNC(=O)C1CCC(N)=N1	-	H37Rv	-	MIC	-	BACTEC	≥12.8 µg/mL
COc1ccc(OC)c(CCNCCNCc2cccc(F)c2)c1	-	-	-	MIC	-	-	12.5 µM
Cc1cc(NNc2ccc([N+](=O)[O-])cn2)c2ccccc2c1N=Nc1ccc([N+](=O)[O-])cn1	12.5 µg/mL	H37Rv	-	inhibition	-	BACTEC	1%
FC(F)(F)c1ccc(CNCCNCCC2=CCCCC2)cc1	-	-	-	MIC	-	-	50 µM
COc1ccc(N)cc1OC	-	H37Rv	-	MIC	-	-	100 µg/mL
CC(CNCCNC(C)c1cccc2ccccc12)c1ccccc1	-	-	-	MIC	-	-	25 µM
Nc1ccc(C(=O)/C=C/c2cccnc2N)cc1	12.5 µg/mL	-	-	inhibition	-	-	0%
Nc1cc(O)c(C(=O)O)c(O)c1	-	H37Rv	-	MIC	-	-	50 µg/mL
COC(=O)Nc1cc2c(c(N)n1)N=C(c1ccccc1)C(C)N2	-	H37Rv	-	EC50	-	-	>12.5 µg/mL
NC(=O)c1cnccn1	-	Isolate K10429	-	MIC	-	-	>500 µg/mL
OCCNCCO	-	H37Rv	-	MIC	-	-	>100 µg/mL
O=C(/C=C/c1ccccc1)c1ccc(I)cc1O	-	-	-	EC50	-	-	>12.5 µg/mL
Cc1ccc(-n2c(=O)oc3ccc(F)cc3c2=S)cc1	-	My 331/88	14 d	MIC	-	-	1 µM
C/C(CC(=O)Nc1ccc(Cl)c(Cl)c1)=N\NC(=O)C[N+](C)(C)C.[Cl-]	-	H37Rv	-	MIC bound	-	BACTEC	>12.5 µg/mL
O=C(CC(Nc1ccccc1)c1ccccc1)c1ccccc1	-	H37Rv	-	MIC	-	-	50 µg/mL
COc1ccc2oc(=O)n(-c3ccc(Cl)c(Cl)c3)c(=S)c2c1	-	My 331/88	14 d	MIC	-	-	16 µM
Nc1ccccc1Oc1ccccc1N	-	H37Rv	-	MIC	-	-	50 µg/mL
CC(C)N=c1cc2n(-c3ccc(Cl)cc3)c3ccccc3nc-2cc1Nc1ccc(Cl)cc1	-	MDR4	-	MIC	-	broth dilution / resazurin	0.5 µg/mL
COc1ccc2oc(=O)n(-c3ccc(F)cc3)c(=S)c2c1	-	My 331/88	21 d	MIC	-	-	16 µM
CCN(CC)CCCC(C)Nc1cc(-c2cccc(Cl)c2)nc2ccc(C)cc12	-	H37Rv	-	MIC	-	-	25 µg/mL
COc1cc2oc(-c3ccc(O)cc3O)c(CC=C(C)C)c(=O)c2c(O)c1/C=C/C(C)C	-	EMB-R	-	MIC	-	-	>12.5 µg/mL
O=C1c2ccccc2OC(c2ccccc2)C1O	12.5 µg/mL	H37Rv	-	inhibition	-	-	38%
C[C@H]1C[C@H](N)CN1c1cc2c(cc1F)c(=O)c(C(=O)O)cn2-c1ccc(F)cc1F	-	ATCC 35830	-	MBC	-	-	8 µg/mL
Clc1ccc2c(Cl)ccnc2c1	-	H37Rv	-	MIC	-	-	100 µg/mL
CC(CNCCC(c1ccccc1)c1ccccc1)NCCC1=CCCCC1	-	-	-	MIC	-	-	12.5 µM
c1ccc(-c2c[nH]c(-c3ccccc3)c2)cc1	-	H37Rv	-	MIC	-	-	>100 µg/mL
O=C(O)c1cccc2cccc(-c3c4ccc(=O)c(O)c-4oc4c(O)c(O)ccc34)c12	12.5 µg/mL	H37Rv	-	inhibition	-	BACTEC	-7%
Clc1ccccc1CCNCCNCCNc1ccccc1	-	-	-	MIC	-	-	50 µM
CCCCCNCCNCc1ccc(OC)cc1OC	-	-	-	MIC	-	-	25 µM
O=C1CC(c2ccccc2)Oc2ccc(Br)cc21	12.5 µg/mL	H37Rv	-	inhibition	-	-	8%
COc1ccc2c3c(c(=O)n(C)c2c1OC)C=CC(C)(C)O3	12.5 µg/mL	H37Rv	-	inhibition	-	BACTEC	12%
CO[C@H]1/C=C/O[C@@]2(C)Oc3c(C)c(O)c4c(O)c(c(/C=N/N5CCN(C)CC5)c(O)c4c3C2=O)NC(=O)/C(C)=C\C=C\[C@H](C)[C@H](O)[C@@H](C)[C@@H](O)[C@@H](C)[C@H](OC(C)=O)[C@@H]1C	-	TN808	-	MIC	-	-	>32 µg/mL
O=C1/C(=C2\Sc3cc(Cl)ccc3C2=O)Sc2cc(Cl)ccc21	-	H37Rv	-	MIC	-	-	>100 µg/mL
COc1ccc(C2Oc3cc(OC)cc(OC)c3C(=O)C2Br)cc1	-	H37Rv	-	EC50	-	-	>12.5 µg/mL
Cc1ccc2c(c1)nc1cc3c(cc1n2C1CCCCC1)c(Cl)c(=O)c1ccccc13	-	H37Rv	-	MIC	-	BACTEC	0.78 µg/mL
CC(Cc1ccc(Cl)cc1)NCCNCCCCc1ccccc1	-	-	-	MIC	-	-	50 µM
O=c1c(-c2ccc(O)cc2)coc2cc(O)cc(O)c12	-	H37Rv	-	MIC bound	-	BACTEC	>12.5 µg/mL
CC(=O)Nc1cc(Cl)ccc1[N+](=O)[O-]	-	H37Rv	-	MIC	-	-	>100 µg/mL
CC(NCCNC1CCCCCCC1)C12CC3CC(CC(C3)C1)C2	-	-	-	MIC	-	-	50 µM
Cc1ccc(C(=O)O)cc1-n1c(-c2ccc(Cl)cc2)nnc1-c1ccc([N+](=O)[O-])cc1	-	H37Rv	-	MIC	-	-	>100 µg/mL
NC[C@H]1O[C@H](O[C@H]2[C@H](O)[C@@H](O[C@H]3O[C@H](CO)[C@@H](O)[C@H](N)[C@H]3O)[C@H](N)C[C@@H]2N)[C@H](O)[C@@H](O)[C@@H]1O	-	TN4728 (BN)	-	MIC	-	-	>256 µg/mL
O=[N+]([O-])Cc1cnc2nncn2n1	12.5 µg/mL	H37Rv	-	inhibition	-	BACTEC	98%
CCC(=O)c1cc(N)c(O)cc1O	-	H37Rv	-	MIC	-	-	>100 µg/mL

5 of the rows above, restated:

structure | dose | strain | setting | read-out | mutations | read by | value
CC(=O)Nc1cc(Cl)ccc1[N+](=O)[O-] | - | H37Rv | - | MIC | - | - | >100 µg/mL
CO[C@H]1/C=C/O[C@@]2(C)Oc3c(C)c(O)c4c(O)c(c(/C=N/N5CCN(C6CCCC6)CC5)c(O)c4c3C2=O)NC(=O)/C(C)=C\C=C\[C@H](C)[C@H](O)[C@@H](C)[C@@H](O)[C@@H](C)[C@H](OC(C)=O)[C@@H]1C | - | Isolate 900240 drug-susceptible | - | MIC | - | - | 0.063 µg/mL
CCOC(=O)Nc1cc(NN)c([N+](=O)[O-])c(NC(=O)OCC)n1 | 12.5 µg/mL | H37Rv | - | inhibition | - | - | 0%
COc1ccc2c3c(c(=O)n(C)c2c1OC)C=CC(C)(C)O3 | 12.5 µg/mL | H37Rv | - | inhibition | - | BACTEC | 12%
Nc1ccc(Nc2ccccc2)c(S(=O)(=O)O)c1 | - | H37Rv | - | MIC | - | - | >100 µg/mL